{
  "source": "paper PMC8872793",
  "about": "(Proceedings of the National Academy of Sciences of the …, 2021)",
  "proteins": {"B1": {"name": "Mycobacterium tuberculosis UvrD1 (Rv0949), wild type (enzyme)", "chain": "not shown"}},
  "key": {"AUC": {"biological_target": "the molecule itself", "assay": "AUC"}, "SEC": {"biological_target": "the molecule itself", "assay": "SEC"}},
  "data": [
    {"protein": "B1", "values": [
      {"measurement": "stoichiometry N", "setting": "AUC", "value": "≥ 2"},
      {"measurement": "stoichiometry N", "setting": "SEC", "value": 2}
    ]}
  ]
}
